# Potato spindle tuber viroid, loop 6: variant abundance in plants

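A pool of all variants was put on leaves of three Nicotiana benthamiana plants. Samples came from the inoculated region at 5 days, the leaf margin at 10 and upper systemic leaves at 12.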

Region: loop 6 of PSTVd (intermediate strain), upper and lower strand joined, each 5' to 3', the first 5 letters being the upper strand, closing pairs included. Wild type: UGACCGCGAG. Varied positions (N): UNNNCGNNNG.

Values are reads per thousand in the sample; higher means more abundant, 0 means not found. Each value is the mean of three plants. "Pool" is the share in the plasmid pool used as inoculum, on the same scale. The inoculated region was read from the minus strand, the other sites from the plus strand. IR is the inoculated region, LM the leaf margin, Sys the systemic leaves.

UAAACGAUUG (pool 0.261) read IR 0.0953; LM 0.0309; Sys 0.
UAGUCGGGCG (pool 0.0915) read IR 0.596; LM 0.0268; Sys 0.
UGCUCGGGGG (pool 0.118) read IR 0.107; LM 0; Sys 0.
UUUACGGCCG (pool 0.196) read IR 0.620; LM 0.0276; Sys 0.
UGACAGCCGG (pool 0.0131) read IR 0; LM 0.00920; Sys 0.
UGCCCGGUUG (pool 0.327) read IR 0.0883; LM 0.00841; Sys 0.
UAUACGCUCG (pool 0.405) read IR 0.0826; LM 0; Sys 0.
UGACCGCGAA (pool 0.0131) read IR 0.114; LM 8.44; Sys 0.549.
UAUCCGUGAG (pool 0.209) read IR 0.143; LM 0.00920; Sys 0.
UGGUCGGAGG (pool 0.327) read IR 0.143; LM 0.00773; Sys 0.
UCCUCGAUAG (pool 0.235) read IR 0.124; LM 0.0773; Sys 0.
UGUACGGACA (pool 0.0131) read IR 0; LM 0; Sys 0.
UUAACGGCUG (pool 0.327) read IR 0.114; LM 0; Sys 0.
UCAACGAUGG (pool 0.248) read IR 0.0643; LM 0; Sys 0.
UAUUCGGCGG (pool 0.327) read IR 0.0888; LM 0.00773; Sys 0.
UGUGCGGAGG (pool 0.144) read IR 0.108; LM 0.00773; Sys 0.
UGUUCGUUUG (pool 0.497) read IR 0.0775; LM 0; Sys 0.
UAAUCGCUGG (pool 0.222) read IR 0.101; LM 0.00773; Sys 0.
UCGGCGAUCG (pool 0.314) read IR 0.0946; LM 0; Sys 0.
UCGUCGGCCG (pool 0.144) read IR 0.0706; LM 0; Sys 0.
UUCGCGCAGG (pool 0.301) read IR 0.102; LM 0.00920; Sys 0.
UAAACGUACG (pool 0.248) read IR 0.589; LM 0.0690; Sys 0.0127.
UAGCCGACUG (pool 0.275) read IR 0.0954; LM 0.0436; Sys 0.
UACCCGAGAG (pool 0.261) read IR 0.155; LM 0.0387; Sys 0.

For reference, wild type rose from 20.7 per thousand in the pool to 195, 198, 203 (inoculated region), 629, 591, 734 (leaf margin) and 942, 870, 868 (systemic leaves). Samples held 36,220 to 57,551 reads, so the smallest values rest on one or two reads. The authors trace changes outside the varied positions to PCR and sequencing errors or to mutation in the plant; presence does not show that a variant is infectious alone.

From the data files of Wu et al. 2024, doi:10.1371/journal.ppat.1012142.